A mixed list of measured activities; the numbers were collected in NIAID ChemDB.

Common to all: tests in culture

Zone: diameter of growth inhibition.

SMILES	species	strain	read by	conditions	measure	dose	value
N=C(N)c1ccc2nc(-c3ccc(-c4nc5ccc(C(=N)N)cc5[nH]4)[nH]3)[nH]c2c1	Candida albicans	Isolate CA2601 fluconazole-resistant	-	-	MFC	-	3.12 µg/mL
CCC(C)n1ncn(-c2ccc(N3CCN(c4ccc(OC[C@H]5CO[C@](Cn6cncn6)(c6ccc(Cl)cc6Cl)O5)cc4)CC3)cc2)c1=O	Candida spp.	Fluconazole-resistant	broth dilution	-	MIC50	-	2 µg/mL
COc1ccc(C(c2ccc(OC)cc2)n2ccnc2)cc1	Candida dubliniensis	-	agar	-	MIC90	-	>256 µg/mL
CCCCCCCCn1cc[n+](COCCCCCOC[n+]2ccn(CCCCCCCC)c2)c1	Candida krusei	ATCC 6258	agar diffusion	-	MIC100	-	142 µM
O=C1S/C(=C\c2ccoc2)C(=O)N1CC(O)(Cn1nccn1)c1ccc(F)cc1F	Candida colliculosa	Fluconazole-resistant 103	-	-	MIC50	-	18.5 µg/mL
COc1ccc(/C=N/O)cc1	Candida lipolytica	-	-	-	MIC	-	6620 µM
CCC(C)CC(C)CCCCCCCCC(=O)N[C@H]1C[C@@H](O)[C@H](NCCN)NC(=O)[C@@H]2[C@@H](O)CCN2C(=O)[C@H]([C@H](O)CCN)NC(=O)[C@H]([C@H](O)[C@@H](O)c2ccc(O)cc2)NC(=O)[C@@H]2C[C@@H](O)CN2C(=O)[C@H]([C@@H](C)O)NC1=O	Candida guilliermondii	-	-	-	MIC50	-	0.03–16 µg/mL
Cc1ccccc1N1C(=O)CC(C)C1=O	Candida lusitaniae	CCC 134-2000	broth dilution / turbidity	-	MIC	-	125 µg/mL
CC(C)=NNC(=O)c1snnc1C(F)(F)F	Candida rugosa	NCIM 3462	agar diffusion / agar	-	zone	100 µg/mL	0 mm
CC(C)(O)c1cn(-c2ccc([N+](=O)[O-])cc2)nn1	Candida parapsilosis	URM 3621	broth dilution	-	inhibition	2048 µg/mL	0%
Cc1ccc(C(O)c2cccc(C(=O)CCn3ccnc3)c2)cc1	Candida guilliermondii	RTCC1248	broth dilution	-	MIC	-	64 µg/mL
O=C(NN=Cc1ccccc1)c1snnc1C(F)(F)F	Candida rugosa	NCIM 3462	agar diffusion / agar	-	zone	150 µg/mL	6 mm
O/N=C\c1ccccc1	Candida famata	-	-	-	MIC100	-	8260 µM
Clc1ccc(C(c2ccccc2)N2CCN(CCn3ccnc3)CC2)cc1	Candida dubliniensis	-	agar	-	MIC90	-	>256 µg/mL
CC[C@@H]([C@H](C)O)n1ncn(-c2ccc(N3CCN(c4ccc(OC[C@@H]5CO[C@@](Cn6cncn6)(c6ccc(F)cc6F)C5)cc4)CC3)cc2)c1=O	Candida guilliermondii	-	-	-	MIC50	-	0.015–2 µg/mL
C[C@@H]1[C@H](O)[C@@H](C)/C=C/C=C/C=C/C=C/C=C/C=C/C=C/[C@H](O[C@@H]2O[C@H](C)[C@@H](O)[C@H](N)[C@@H]2O)C[C@@H]2O[C@](O)(C[C@@H](O)C[C@@H](O)[C@H](O)CC[C@@H](O)C[C@@H](O)CC(=O)O[C@H]1C)C[C@H](O)[C@H]2C(=O)O	Candida rugosa	NCIM 3462	agar diffusion / agar	-	zone	100 µg/mL	21 mm
Nc1ncccc1-c1cc(Cc2ccc(COc3ccccn3)cc2)no1	Candida spp.	fluconazole-sensitive	broth dilution	-	MIC50	-	<0.008 µg/mL
Clc1ccc(COC(Cn2ccnc2)c2ccc(Cl)cc2Cl)c(Cl)c1	Candida glabrata	40 isolates	broth dilution	pH 4	EC90	-	16 µg/mL
O/N=C\c1cccs1	Candida lipolytica	-	-	-	MIC	-	3930 µM
CC(C)(O)c1cn(-c2ccc3ccccc3c2)nn1	Candida albicans	URM 4126	broth dilution	-	inhibition	2048 µg/mL	0%
c1ccc(C(c2ccccc2)n2ccnc2)cc1	Candida dubliniensis	-	broth dilution	-	MFC	-	1 µg/mL
C[C@H]1[C@H](O)[C@@H](C)/C=C/C=C/C=C/C=C/C=C/C=C/C=C/[C@H](O[C@@H]2O[C@H](C)[C@@H](O)[C@H](N)[C@@H]2O)C[C@@H]2O[C@](O)(C[C@@H](O)C[C@@H](O)CC[C@H](O)[C@@H](O)C[C@@H](O)CC(=O)O[C@H]1C)C[C@H](O)[C@H]2C(=O)O	Candida lusitaniae	CCC 134-2000	broth dilution / turbidity	-	MIC	-	0.98 µg/mL
Cc1ccc(-n2cc(C(C)(C)O)nn2)cc1C	Candida albicans	URM 4124	broth dilution	-	inhibition	2048 µg/mL	0%
C[C@@H](c1ncncc1F)[C@](O)(Cn1cncn1)c1ccc(F)cc1F	Candida glabrata	40 isolates	broth dilution	pH 6	EC90	-	4 µg/mL
O=C(NN=C1CCCC1)c1snnc1C(F)(F)F	Candida rugosa	NCIM 3462	agar diffusion / agar	-	zone	100 µg/mL	0 mm
Cc1ccc(C(O)c2cccc(C(O)CCn3ccnc3)c2)cc1	Candida guilliermondii	RTCC 1377	broth dilution	-	MIC	-	>64 µg/mL
O/N=C\c1ccccc1Cl	Candida lipolytica	-	-	-	MIC100	-	2850 µM
CC(C)(O)c1cn(-c2cccc3ccccc23)nn1	Candida parapsilosis	URM 3621	broth dilution	-	inhibition	2048 µg/mL	0%
C=CCc1ccc(OC)c(OC)c1	Candida tropicalis	2854	turbidity	-	MIC90	-	345 µg/mL
OC(CCn1ccnc1)c1cccc(C(O)c2ccc(Br)cc2)c1	Candida kefyr	RTCC 1074	broth dilution	-	MIC	-	8 µg/mL
Clc1ccc(C(c2ccccc2)n2cnc3ccccc32)cc1	Candida dubliniensis	-	agar	-	MIC90	-	128 µg/mL
C[C@@H](c1ncncc1F)[C@](O)(Cn1cncn1)c1ccc(F)cc1F	Candida glabrata	-	broth dilution	-	MIC50	-	0.12 µg/mL
CCC(C)CC(C)CCCCCCCCC(=O)N[C@H]1C[C@@H](O)[C@H](NCCN)NC(=O)[C@@H]2[C@@H](O)CCN2C(=O)[C@H]([C@H](O)CCN)NC(=O)[C@H]([C@H](O)[C@@H](O)c2ccc(O)cc2)NC(=O)[C@@H]2C[C@@H](O)CN2C(=O)[C@H]([C@@H](C)O)NC1=O	Candida glabrata	40 isolates	broth dilution	pH 7	EC90	-	0.5 µg/mL
CC1CC(=O)N(c2ccc(F)cc2F)C1=O	Candida lusitaniae	CCC 134-2000	broth dilution / turbidity	-	MIC	-	250 µg/mL
COC(=O)[C@H]1[C@@H]2C[C@@H](O[C@@H]3O[C@H](C)[C@@H](O)[C@H](N)[C@@H]3O)/C=C/C=C/C=C/C=C/C=C/C=C/C=C/[C@H](C)[C@@H](O)[C@H](C)[C@H](C)OC(=O)C[C@H](O)C[C@H](O)[C@@H](O)CC[C@H](O)C[C@H](O)C[C@](O)(C[C@@H]1O)O2	Candida glabrata	40 isolates	broth dilution	pH 7	EC90	-	0.25 µg/mL
N=c1oc2ccccc2c2csc(N)c12	Candida guilliermondii	-	broth dilution	-	MIC	-	>256 µg/mL
O=C(NN=Cc1ccc(O)cc1)c1snnc1C(F)(F)F	Candida rugosa	NCIM 3462	agar diffusion / agar	-	zone	150 µg/mL	0 mm
C[C@@H]1C(=O)N(CCCc2ccccc2)C(=O)[C@@H]1C	Candida lusitaniae	CCC 134-2000	broth dilution / turbidity	-	MIC	-	62.5 µg/mL
O=C(c1ccccc1)C(c1ccccc1)n1cnc2ccccc21	Candida dubliniensis	-	broth dilution	-	MFC	-	256 µg/mL
O=C(CCn1ccnc1)c1cccc2ccccc12	Candida kefyr	RTCC 1074	broth dilution	-	MIC	-	64 µg/mL
CCCCCCCCCCCCCCn1cc[n+](COCCCOC[n+]2ccn(CCCCCCCCCCCCCC)c2)c1	Candida krusei	ATCC 6258	agar diffusion	-	MIC100	-	7 µM
CC1(C)O[C@H]2[C@H](O)[C@@H](N=[N+]=[N-])C=C(c3ccc(C=O)cc3)[C@H]2O1	Candida tropicalis	C 131	broth dilution / turbidity	-	inhibition	62.5 µg/mL	18.5%
CCCCn1cc[n+](COCCOC[n+]2ccn(CCCC)c2)c1	Candida krusei	ATCC 6258	agar diffusion	-	MIC100	-	1634 µM
O=C(CCn1ccnc1)c1ccc2ccccc2c1	Candida guilliermondii	RTCC 1377	broth dilution	-	MIC	-	64 µg/mL
O=C1C2=C(OC(CI)C2)C(=O)c2ccccc21	Candida tropicalis	Clinical isolate	broth dilution	-	MIC	-	25.4 µg/mL
O=[N+]([O-])c1cccc(/C=N\O)c1	Candida famata	-	-	-	MIC	-	3010 µM
Nc1ncccc1-c1cc(Cc2ccc(COc3ccccn3)cc2)no1	Candida tropicalis	8662	broth dilution	-	MIC	-	0.015 µg/mL
O=C(CCn1ccnc1)c1ccc(Br)cc1	Candida kefyr	RTCC 1074	broth dilution	-	MIC	-	8 µg/mL
Clc1ccc(C(c2ccccc2)N2CCN(CCn3cncn3)CC2)cc1	Candida parapsilosis	-	agar	-	MIC90	-	64 µg/mL
O/N=C\c1ccc(O)cc1	Candida famata	-	broth dilution	-	MFC	-	>7290 µM
CCCCCCn1cc[n+](COCCCOC[n+]2ccn(CCCCCC)c2)c1	Candida krusei	ATCC 6258	agar diffusion	-	MIC100	-	649 µM
CC(=NNC(=O)c1snnc1C(F)(F)F)c1ccc(Br)cc1Br	Candida rugosa	NCIM 3462	agar diffusion / agar	-	zone	100 µg/mL	0 mm

Again, the opening 5 rows:

SMILES,species,strain,read by,conditions,measure,dose,value
N=C(N)c1ccc2nc(-c3ccc(-c4nc5ccc(C(=N)N)cc5[nH]4)[nH]3)[nH]c2c1,Candida albicans,Isolate CA2601 fluconazole-resistant,-,-,MFC,-,3.12 µg/mL
CCC(C)n1ncn(-c2ccc(N3CCN(c4ccc(OC[C@H]5CO[C@](Cn6cncn6)(c6ccc(Cl)cc6Cl)O5)cc4)CC3)cc2)c1=O,Candida spp.,Fluconazole-resistant,broth dilution,-,MIC50,-,2 µg/mL
COc1ccc(C(c2ccc(OC)cc2)n2ccnc2)cc1,Candida dubliniensis,-,agar,-,MIC90,-,>256 µg/mL
CCCCCCCCn1cc[n+](COCCCCCOC[n+]2ccn(CCCCCCCC)c2)c1,Candida krusei,ATCC 6258,agar diffusion,-,MIC100,-,142 µM
O=C1S/C(=C\c2ccoc2)C(=O)N1CC(O)(Cn1nccn1)c1ccc(F)cc1F,Candida colliculosa,Fluconazole-resistant 103,-,-,MIC50,-,18.5 µg/mL

Rows are shuffled and stem from different studies. Percent inhibition refers to the dose given; in toxicity tests it is the harm to the cells. a–b is a range or a potency band. Blank or dashed fields: not listed here. ECn is the concentration giving n% inhibition of infection, replication or growth. A number after MIC or MFC names an inhibition level or a share of isolates.